Results of unrelated studies side by side (data: NIAID ChemDB).

Shared fields: tests in culture; species: Human cytomegalovirus; measure: EC50

Blank or dashed fields: not listed here. ECn: concentration that inhibits the pathogen or its effect by n%. Conditions beyond the fields shown may differ between rows.

SMILES | cells | strain or isolate | conditions | value
C=C1[C@H](CO)[C@H]1Cn1cnc2c(Cl)nc(N)nc21 |  |  |  | >100 µM
Cc1cc(C)cc(Cn2c(=S)ccn(Cc3cccnc3)c2=O)c1 |  | AD169 |  | >59 µM
Cc1cn([C@@H]2CC3(CO2)COC(C)(C)O3)c(=O)[nH]c1=O | HFF | AD169 |  | >100 µM
COC(=O)[C@H](C)NP(=O)(OC[C@H]1C/C1=C/n1cnc2c(N)nc(N)nc21)Oc1ccccc1 | HFF | AD169 |  | 7.8 µM
Cc1cc(C)cc(Cn2c(=S)ccn(Cc3ccsc3)c2=O)c1 |  | AD169 |  | 9.5 µM
[N-]=[N+]=N[C@H]1C[C@H](CO)S[C@H]1n1cnc2c(=O)[nH]cnc21 |  |  |  | <100 µg/mL
O=C(Nc1ccc(NC(=S)Nc2ccc(Cl)c(C(F)(F)F)c2)cc1)c1csnn1 |  |  |  | 0.026 µM
[N-]=[N+]=N[C@@H]1C[C@@H](CO)S[C@H]1n1cnc2c(Cl)ncnc21 |  |  |  | <100 µg/mL
COc1ccc2c(c1)c(CC(=O)O)c(C)n2C(=O)c1ccc(Cl)cc1 | HFF | AD169 |  | >500 µM
Cc1cccn2c(C3OCCO3)cnc12 | HEL | AD169 |  | >116 µM
CNc1ncnc2c1ncn2[C@@H]1S[C@H](CO)C[C@@H]1N=[N+]=[N-] |  |  |  | <100 µg/mL
O=c1[nH]c(=O)n([C@H]2CO[C@H](CO)O2)cc1/C=C/Br |  | WFI |  | >30 µg/mL
CN(Cc1cnc2nc(N)nc(N)c2n1)c1ccc(C(=O)N[C@@H](CCC(=O)O)C(=O)O)cc1 | MRC-5 | TOWNE | 4 h | >0.2 µM
Nc1nc2c(ncn2CCCCO)c(=O)[nH]1 | HEL | AD169 |  | 250 µM
Nc1nc2c(ncn2C[C@@H]2CO[C@H](P(=O)(O)O)O2)c(=O)[nH]1 |  |  |  | 45 µg/mL
CC(C)(C)[Si](OC[C@H]1C[C@@H](Cn2cnc3c(N)ncnc32)c2cn(Cc3ccccc3)nc21)(c1ccccc1)c1ccccc1 | HEL | DAVIS |  | 0.5 µM
COc1nc(N)nc2c1ncn2/C=C1/C[C@H]1CO | HFF | AD169 |  | 5.3 µM
COc1cc(OC)c(NC(=S)Nc2ccc(NC(C)=O)cc2)cc1Cl | HFF | AD169 |  | 0.037 µM
[N-]=[N+]=N[C@H]1C[C@H](CO)S[C@H]1n1ccc(N)nc1=O |  |  |  | <100 µg/mL
Cc1cn(CC=C(CO)CO)c(=O)[nH]c1=O |  |  |  | >100 µg/mL
CC(C)Nc1nc2cc(Cl)c(Cl)cc2n1[C@H]1O[C@@H](CO)[C@H](O)[C@@H]1O |  |  |  | <1 µM
Cc1ccn2c(C3SCCS3)cnc2c1 | HEL | DAVIS |  | 64 µM
COc1cc(OC)c(NC(=S)Nc2ccc(NC(=O)c3ccco3)cc2)cc1Cl |  |  |  | 0.5 µM
Cc1ccccc1CNC(=O)c1ccc2cnccc2n1 |  |  |  | 0.3 µg/mL
COC(=O)[C@H](C)NP(=O)(OCC1C/C1=C/n1cnc2c(=O)[nH]c(N)nc21)Oc1ccccc1 | HFF | AD169 |  | 25 µM
C/C(=C\Cn1ccc(=O)[nH]c1=O)CO |  |  |  | >100 µg/mL
C=C1[C@H](CO)[C@H]1Cn1cnc2c(N)ncnc21 |  |  |  | >100 µM
O=c1[nH]c(=O)n([C@H]2CO[C@H](CO)S2)cc1/C=C/Br |  | WFI |  | >100 µg/mL
CC1(C)OCC2(CO[C@H](n3ccc(NC(=O)c4ccccc4)nc3=O)C2)O1 | HFF | AD169 |  | >100 µM
CNc1ncnc2c1ncn2[C@@H]1S[C@@H](CO)C[C@@H]1N=[N+]=[N-] |  |  |  | <100 µg/mL
C/C(=C\Cn1cc(I)c(=O)[nH]c1=O)CO |  |  |  | >100 µg/mL
CC#CC=C[C@H]1O[C@@H](n2cnc3c(N)ncnc32)[C@H](O)[C@@H]1O | HEL | AD169 |  | 50 µM
Nc1ccn([C@@H]2C[C@](O)(CO)CO2)c(=O)n1 | HFF | AD169 |  | >100 µM
[N-]=[N+]=N[C@@H]1C[C@@H](CO)S[C@@H]1n1ccc(=O)[nH]c1=O |  |  |  | <100 µg/mL
CC(=O)O[C@@H]1CC[C@H](O)[C@@]2(C)CC/C(C(C)C)=C\C=C(/C)CCC1O2 | HEL |  |  | 8 µg/mL
Cc1cc(C)cc(Cn2c(=S)ccn(Cc3cccs3)c2=O)c1 |  | AD169 |  | 10 µM
CNc1ncnc2c1ncn2[C@H]1S[C@H](CO)C[C@@H]1N=[N+]=[N-] |  |  |  | <100 µg/mL
C=C1[C@H](CO)[C@H]1Cn1cnc2c(N)nc(N)nc21 |  |  |  | >100 µM
O=c1[nH]c(=O)n([C@@H]2CO[C@@H](CO)S2)cc1/C=C/Br |  | WFI |  | 80 µg/mL
Nc1nc2c(ncn2COC(CO)CO)c(=O)[nH]1 | MRC-5 | AD169 |  | 1.6 µM
CCCCCCCCCCCCCCCCCCOCCOP1(=O)CO[C@@H](Cn2ccc(N)nc2=O)CO1 | MRC-5 | AD169 |  | 0.0001 µM
Cc1ccn2c(C(SCCc3ccccc3)SCCc3ccccc3)cnc2c1 | HEL | AD169 |  | 3.1 µM
Cc1cc(C)cc(Cn2c(=O)ccn(Cc3ccccc3)c2=O)c1 |  | AD169 |  | 1 µM
CC1(C)OCC(COC(=O)O)(CC(COC(=O)O)OC(=O)O)O1 | HFF | AD169 |  | >100 µM
Nc1nc(N)c2ncn(C=C3CC3CO)c2n1 | HFF | AD169 |  | 16 µM
O=C(Nc1ccc(NC(=S)Nc2cc(C(F)(F)F)cc(C(F)(F)F)c2)cc1)c1csnn1 |  |  |  | 0.037 µM
O=c1[nH]c(=O)n([C@@H]2CO[C@@H](CO)O2)cc1/C=C/Br |  | WFI |  | 25 µg/mL
Nc1nc2c(ncn2[C@@H]2C=C[C@H](CO)[C@@H](O)C2)c(=O)[nH]1 |  | LY9990 |  | 0.38 µg/mL
Cc1cc(C)cc(Cn2c(=S)ccn(Cc3ccco3)c2=O)c1 |  | AD169 |  | 13 µM
O=c1[nH]c(=O)n(CC=C(CO)CO)cc1I |  |  |  | >100 µg/mL
CC1(C)OCC2(CC(CO)OC2=O)O1 | HFF | AD169 |  | >100 µM

Repeating the final 3 entries:

SMILES,cells,strain or isolate,conditions,value
Cc1cc(C)cc(Cn2c(=S)ccn(Cc3ccco3)c2=O)c1,,AD169,,13 µM
O=c1[nH]c(=O)n(CC=C(CO)CO)cc1I,,,,>100 µg/mL
CC1(C)OCC2(CC(CO)OC2=O)O1,HFF,AD169,,>100 µM